Like-named read-outs stand apart in the source and are kept apart here.
Columns and labels:
MOR [1] = target: T1, MOR (Homo sapiens, UniProt P35372); test: Radioligand competition binding, Ki (PDSP); settings: read-out: MOR Ki
MOR [2] = target: T1, MOR; test: Primary binding (PDSP); settings: for MOR mean % inhibition: 10 μM, N = 4 determinations, negative = stimulation of binding; for MOR: Table 7, rounded values of Table 4

| SMILES | Ki (MOR [1]; Cheng-Prusoff from best fit IC50) [µM] | Ki (MOR [1]; Table 7, values of Table 5) [µM] | MOR mean % inhibition (MOR [2]) [%] | MOR (MOR [2]) |
| --- | --- | --- | --- | --- |
| CN(C(=O)Cc1cccc2occc12)[C@H]1CCCC[C@@H]1N1CCCC1 | > 10 | > 10 | 62 | 62 |
| CN1CC(C(=O)N2CCCC[C@H]2CN2CCCC2)CC1=O (stereo partly drawn) |  |  | 7.7 | 8 |
| O=C(CCN1CCc2ccccc21)N1CCCC[C@H]1CN1CCCC1 |  |  | 11.1 | 11 |
| O=C(/C=C/c1ccoc1)N1CCCC[C@H]1CN1CCCC1 |  |  | 21 | 21 |
| C1CCCC(CN2CCCC[C@H]2CN2CCCC2)CCC1 |  |  | 11.2 | 11 |
| CCn1c(=O)n([C@H]2CCCC[C@@H]2N2CCCC2)c2ccccc21 |  |  | 20 | 20 |
| CCn1c(=O)n([C@@H]2CCCC[C@H]2N2CCCC2)c2ccccc21 |  |  | 4.7 | 5 |
| O=C(CCN1CCC2(CCc3ccccc32)CC1)N[C@H]1CCCC[C@@H]1N1CCCC1 |  |  | 36 | 36 |
| O=C(Cc1cccc2occc12)N1CCCC[C@H]1CN1CCCC1 |  |  | 23.6 | 24 |
| CN1CC(C(=O)N(C)[C@H]2CCCC[C@@H]2N2CCCC2)CC1=O (stereo partly drawn) |  |  | 18.7 | 19 |
| O=C(NCCCN1CCCC[C@H]1CN1CCCC1)C1CCCN1Cc1ccccc1 (stereo partly drawn) |  |  | 30.2 | 30 |
| O=C(Cc1ccc2c(c1)OCO2)N1CCCC[C@H]1CN1CCCC1 |  |  | 23.3 | 23 |
| CN(C(=O)CCN1CCC2(CCc3ccccc32)CC1)[C@H]1CCCC[C@@H]1N1CCCC1 |  |  | 47.8 | 48 |
| CN1CC(C(=O)N[C@H]2CCCC[C@@H]2N2CCCC2)CC1=O (stereo partly drawn) |  |  | 3.6 | 4 |
| O=C(c1ccccc1)N1CCCC[C@H]1CN1CCCC1 |  |  | 20.6 | 21 |
| O=C(C1CCCN1Cc1ccccc1)N1CCCC[C@H]1CN1CCCC1 (stereo partly drawn) |  |  | 8.4 | 8 |
| O=C(Cc1ccccc1)N1CCCC[C@H]1CN1CCCC1 |  |  | 13.9 | 14 |
